## Mutational tolerance of the Zika virus NS2B-NS3 protease

Source: Ni et al. 2025 (doi:10.1038/s41467-025-63602-z), supplementary data.

Chain scanned (Zika virus MR766; NS2B from position 2 to 131, then the start of NS3):
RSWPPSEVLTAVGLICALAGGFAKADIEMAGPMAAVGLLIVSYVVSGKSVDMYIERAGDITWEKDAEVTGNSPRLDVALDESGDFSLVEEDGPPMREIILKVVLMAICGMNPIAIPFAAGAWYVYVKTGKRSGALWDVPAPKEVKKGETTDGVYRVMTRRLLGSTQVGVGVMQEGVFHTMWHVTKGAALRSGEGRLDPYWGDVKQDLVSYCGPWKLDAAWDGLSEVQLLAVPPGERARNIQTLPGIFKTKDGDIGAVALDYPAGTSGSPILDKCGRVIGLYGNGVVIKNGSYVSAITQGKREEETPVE

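Pools of virus carrying all single amino acid changes were selected for growth in Huh-7.5 cells. Sequencing of three replicate libraries (two for positions 207-308) was averaged into one effect per change. The aim was to find sites where inhibitor-binding pockets cannot change.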

The number is log2 of the effect relative to wild type; negative values mean reduced growth, higher values better tolerance.
A change reads original residue, position, new residue.
This list holds changes to glycine only.
Values above 0 are not proof of better growth: six high scorers were tested one by one, five grew less well than wild type and one about as well.

- R1G: -8.44
- S2G: -1.77
- W3G: -8.33
- P4G: -6.59
- P5G: -1.07
- S6G: -0.68
- E7G: -2.82
- V8G: -3.27
- L9G: -5.27
- T10G: -0.40
- A11G: -1.87
- V12G: -3.33
- L14G: -5.10
- I15G: -6.77
- C16G: -5.18
- A17G: -1.22
- L18G: -3.19
- A19G: -0.89
- F22G: -4.36
- A23G: -1.55
- K24G: -3.89
- A25G: -4.53
- D26G: -1.05
- I27G: -4.80
- E28G: -7.04
- M29G: -2.81
- A30G: -0.49
- P32G: -6.52
- M33G: -0.64
- A34G: -1.63
- A35G: -2.21
- V36G: -1.68
- L38G: -6.99
- L39G: -5.45
- I40G: -0.65
- V41G: -0.65
- S42G: 0.36
- Y43G: -5.88
- V44G: -6.59
- V45G: -6.62
- S46G: -3.47
- K48G: -3.74
- S49G: -0.87
- V50G: -6.03
- D51G: -6.27
- M52G: -7.10
- Y53G: -7.05
- I54G: -6.63
- E55G: -7.09
- R56G: -6.18
- A57G: -3.13
- D59G: -3.10

Position 1 still belongs to NS2A. In the paper, -1 or higher counts as tolerated.
The region was split into three libraries (1-103, 104-206, 207-308).